# Results of single-concentration screens

The filed quantity is “Percent Effect” (%). The record does not define 0% and 100%; most values in the screen are far below 50% and negative numbers occur (in some assays of this library far below -100). The entries come from a sample that favours strong results. Two or more numbers in one place are separate tests of the same structure; such repeats can differ widely. A dash means the value is not listed here; it may have been measured.

A: 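Whole-cell growth test on Mycobacterium tuberculosis, read after 3 days in glucose-containing 7H9 medium; the read-out is not stated. Concentration: 50 µM. Direction is inferred from retests: higher values go with more growth inhibition. Of about 69,000 compounds tested this way, about 760 (1.1%) reached 50% or more in at least one test.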
B: 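Whole-cell growth test on Mycobacterium tuberculosis, read after 4 days in a medium based on cholesterol and the lipid DPPC; the read-out is not stated. Compounds at 50 µM. Direction is inferred from retests: higher values go with more growth inhibition. Size under these conditions: about 69,000 compounds, about 370 of them at 50% or above in at least one test.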

| compound | A | B |
|---|---|---|
| `CCn1nnc(NCc2ccccc2OCc2ccc(Cl)cc2)n1` | 50.8 | 49.1 |
| `Cc1noc(C)c1CN1CC[C@@H](OCC2CC2)[C@@H](Cc2ccccc2)C1.O=C(O)C(F)(F)F` | 22.67 | - |
| `CCNC(=O)NC(C)c1nc(-c2ccc(Br)cc2)no1` (stereo not shown) | 38.52 | - |
| `CCCN1CCC(NC(=O)Nc2ccc(OC)c(OC)c2)CC1` | 14.08 | -17.61 & -2.805 |
| `Cc1csc(CNC(=O)NCc2ccc3c(c2)OCCO3)n1` | 4.6 | 4.005 |
| `C=Cc1ccc(CN2C(=O)C3(CCNCC3)Nc3ccccc32)cc1` | 85.39 | 54.02 |
| `CN(C)c1ccc(C(=O)NCCCNc2ccc(C(F)(F)F)cn2)cc1` | 26.77 | - |
| `CCCN(C(=O)c1ccncc1)c1nc2c(s1)CCc1c-2cnn1C` | 50.77 | - |
| `CC1CCC(NS(=O)(=O)CC(=O)Nc2ccc(N3CCCC3)cn2)CC1` (stereo not shown) | 16.8 | - |
| `CN(C1CCCCC1)S(=O)(=O)N1CCN(Cc2ccco2)CC1` | -3.413 & 8.808 | - |
| `COc1ccc(N2CCOCC3(CCCN(c4cnccn4)C3)C2)cc1` (stereo not shown) | 6.616 | - |
| `CCc1ccc(CN(CCCn2ccnc2)Cc2ccc(C)s2)o1.O=C(O)CC(O)(CC(=O)O)C(=O)O` | 74.03 | 85.38 |
| `COCCC(=O)N1CCC(Nc2ncc(Br)cn2)CC1` | 8.3 | 6.806 |
| `Cc1nnsc1C(=O)NCCNS(=O)(=O)c1cccs1` | -4.286 | -20.96 |
| `CCCc1nc(NCCc2ccccc2)c2c(n1)c(C)nn2CC` | 47.74 & 24.83 | - |
| `CCCN(CC)c1cc(C2CCNCC2)nc(C)n1` | 6.601 | - |
| `CCOc1ccc(C(=O)CC(SC2CCCCC2)C(=O)O)cc1` (stereo not shown) | 2.842 & 0.3932 | -4.058 |
| `O=C(c1ccno1)N1CCCC(c2ncncc2-c2ccncc2)C1` (stereo not shown) | - | 69.39 |
| `Cc1nc(COC(=O)c2cccnc2C)no1` | 2.547 | -16.3 |
| `CCc1ccccc1CNC(=O)CNCC(F)(F)F` | 52.62 | - |
| `Cc1nc(CN(C)Cc2csc(-c3cccs3)n2)co1` | -1.894 & -18.67 | - |
| `COc1c(C)cnc(CSc2nnc(C)s2)c1C` | - | 24.89 |
| `C=C/C=c1\c(=C/C)oc2c(NCc3ccccc3)nc(C)nc12` | 74.26 | 70.14 |
| `O=C(c1c(F)cccc1F)N1CCOCC1` | - | 29.78 |
| `Cc1nc(N2CCOCC2)nc(C)c1NC(=O)Cc1ccc(Cl)cc1` | -23.19 & -6.371 | - |
| `CC(C)c1noc(CN2CCN(C(=O)c3ccccc3F)CC2)n1` | -12.49 | - |
| `CCc1nc(CN2CCCN(Cc3noc(C4CC4)n3)CC2)cs1` | - | 112.4 & -9.204 |
| `COc1ccc(-c2ccccc2CCN)c(OC)c1` | 47.37 & 61.82 | 33.92 |
| `O=C(CCC(=O)N1CCc2[nH]c3ccccc3c2C1)NCc1ccco1` | -1.36 & -0.4311 | - |
| `COCCN1CCC(c2nc3ccccc3[nH]2)CC1` | -1.144 | -7.608 |
| `Clc1cccc(-c2cccc(N3CCC(NC4CCOCC4)CC3)c2)c1` | 89.02 | 80.29 |
| `CC(C)CC(C(=O)N(C)Cc1ncnn1C)N1CCCCC1=O` (stereo not shown) | - | 70.25 |
| `Cc1nc(N2CCOCC2)nc2c1CCN(Cc1ccsc1)CC2.O=C(O)C(F)(F)F` | 31.79 & 29.38 | 14.66 & 16.01 |
| `COC(=O)c1ccc(CNC(C)(C)c2ccccc2OC)o1` | -0.1996 | -5.182 |
| `CCCN1CCC(NC(=O)c2csc(C)c2-c2ccccc2)CC1` | 6.253 & -0.6244 | -1.118 & 2.454 |
| `COc1ccc([C@@H]2C[C@H](NC(C)=O)C[C@H](CCc3ccccc3)O2)cn1` | - | 7.557 & 15.61 |
| `Cc1nc(-c2ccc(NCCc3ccc(O)cc3)nc2)[nH]c(=O)c1C` | 70.91 | 59.11 |
| `O=C(CNc1cccc(S(=O)(=O)C(F)F)c1)NCc1ccco1` | -20.76 | -7.526 |
| `Cc1nc2c(c(N3CC=CC3)n1)CCN(Cc1ccoc1)CC2` | -19.58 | -39.11 |
| `COc1cccc(F)c1C(C)NC(=O)NCc1ccnc(C)n1` (stereo not shown) | 1.062 | -24.62 |
| `CN(C(=O)CC1=CCCCC1)C1CCCN(CCc2ccccc2)C1` (stereo not shown) | 1.74 & 11.3 | - |
| `CCc1c(C)sc2ncnc(N3C[C@H](O)[C@@H](N4CCCC4)C3)c12` | -11.19 | - |
| `CC(C)N(Cc1ccc(C#N)cc1)C(=O)Nc1ccccn1` | - | 3.324 |
| `COc1ccccc1CNC(=O)CNCCn1cc(C)cn1` | 13.62 | - |
| `O=C1CCC(=O)N1CCN1CCC(=Cc2ccccc2)CC1` | -2.746 | - |
| `COc1ncnc2c1CCN(c1cccc(F)c1)CC2` | 31.25 & 6.221 | - |
| `CC(C)Oc1cccc(CNC(Cc2ccsc2)c2nccs2)c1.Cl` (stereo not shown) | 22.47 | - |
| `[H][C@]12CCCCN1CCC[C@H]2CN(C)Cc1nnc(CC)o1` | 33.66 | - |
| `CCC[C@@H]1CN(Cc2ccc3c(c2)OCCO3)C[C@H]1C(=O)O` | - | -12.34 & 63.42 |
| `Cc1cc(C)n(-c2cncc(NCCNC(=O)C3CCCC3)n2)n1` | -17.15 | - |
| `CCN(CC(O)c1ccc(C)cc1)C(=O)NC(C)C` (stereo not shown) | -10.19 | -13.11 |
| `NC(=O)c1cc(C2CCCN(C(=O)CCc3ccncc3)C2)n[nH]1` (stereo not shown) | 65.05 | - |
| `CN(Cc1ccco1)Cc1cncc2c1CCN(c1ncccn1)C2.Cl.Cl` | 13.59 | - |
| `CC(=O)N1CCCC1c1nnn2cc(NCc3cccnc3)ccc12.O=C(O)C(F)(F)F.O=C(O)C(F)(F)F` (stereo not shown) | - | -1.414 & -23.68 |
| `Cc1ccc(OCCN(C)Cc2ccc(S(=O)(=O)N(C)C)o2)cc1` | - | 17.16 |
| `Cc1nc(C2CCCN2C(=O)c2cc3c(s2)CCCC3)no1` (stereo not shown) | 3.538 | - |
| `c1cn(Cc2ccc(N3CCCN(C4CCCC4)CC3)nc2)cn1` | -40.81 | -6.518 |

The last 5 entries again:

compound	A	B
CN(Cc1ccco1)Cc1cncc2c1CCN(c1ncccn1)C2.Cl.Cl	13.59	-
CC(=O)N1CCCC1c1nnn2cc(NCc3cccnc3)ccc12.O=C(O)C(F)(F)F.O=C(O)C(F)(F)F (stereo not shown)	-	-1.414 & -23.68
Cc1ccc(OCCN(C)Cc2ccc(S(=O)(=O)N(C)C)o2)cc1	-	17.16
Cc1nc(C2CCCN2C(=O)c2cc3c(s2)CCCC3)no1 (stereo not shown)	3.538	-
c1cn(Cc2ccc(N3CCCN(C4CCCC4)CC3)nc2)cn1	-40.81	-6.518

Source: ChEMBL document CHEMBL3988442, “University of Dundee, Small-Polar-MMV Screening Library” (2021).